Test results published in article PMC4347857, “Characterization of the Mycobacterial Acyl-CoA Carboxylase Holo Complexes Reveals Their Functional Expansion into Amino Acid Catabolism” (PLoS Pathogens, 2015).

Test system: CC(C)=CC(=O)SCCNC(=O)CCNC(=O)[C@H](O)C(C)(C)COP(=O)(O)OP(=O)(O)OC[C@H]1O[C@@H](n2cnc3c(N)ncnc32)[C@H](O)[C@@H]1OP(=O)(O)O
Assay: purified protein
Settings: pH 7.6; 30.0 °C

With “AccD1-AccA1 holo complex (M. tuberculosis MCC) (Mycobacterium tuberculosis H37Rv)” the Km was 220 ± 50 µM.
